In test [1] the test system is Zika virus NS2B-NS3 protease (unlinked complex). The test can be described thus: Primary screen GU Rhodamine qHTS for Zika virus inhibitors: Unlinked NS2B-NS3 protease assay (AID 1347159). Also: nearly all actives have a fitted effect of over 60% in size. The note with it: Recombinant ZIKV NS2B-NS3 protease, Rhodamine110 substrate fluorescence; at 57.1 µM (top of the series). An outline of the steps:
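Unlinked NS2B/NS3, 25 nM; Rhod110 peptide, 1.5 microM; compounds, up to 114 microM. Reaction run 15 min at RT in 10 mM Tris-HCl pH 8.0, 0.01% Tween 20; kinetic fluorescence change fitted with a 4-parameter Hill model.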

The subject of test [2] is Zika virus NS2B-NS3 protease (linked construct). The test is described as follows: Primary screen NINDS Rhodamine qHTS for Zika virus inhibitors (AID 1347160). Also: nearly all actives have a fitted effect of over 55% in size. The note with it: purified NS2B-NS3 protease, Rhodamine110 substrate fluorescence; at 57.1 µM (top of the series) unless noted. From the text: Avindra Nath, Ph.D., National Institute of Neurological Disorders and Stroke (NINDS), Bethesda, MD
Radhakrishnan Padmanabhan, Ph.D., Georgetown University (GU), Washington D.C.
Zika Virus causes congenital defects, including microcephaly and is associated with Guillain-Barre syndrome, eningoencephalitis and myelitis in infected adult. […] Using a target-based approach, we hope to establish a screening paradigm to uncover novel, cell-active NS2B-NS3 protease (Zika Virus) specific inhibitors from NCATS' collection of small molecules using qHTS.
Four assay panel was created to identify potential Zika Virus inhibitors. […]
Briefly, 3 microL of enzyme (25 nM final concentration), in assay buffer (10 mM Tris-HCl pH 8.0 with 0.01% Tween 20) were dispensed into a 1,536-well solid-bottom black plate (Greiner Bio One, Monroe, NC). […] Plates were then immediately read on a ViewLux High-throughput CCD imager (PerkinElmer, Waltham, MA) equipped with FITC fluorescence optics (480(20) nm excitation, 540(25) nm emission), then incubated (room temperature, protected from light) for 15 minutes (~15% conversion). The change in fluorescence intensity over the 15-minute reaction period was normalized against no-inhibitor and no-enzyme controls and the resulting percent inhibition data were fitted to a 4-parameter Hill equation. […]

Drawing on PubChem BioAssay (NCATS), this text covers activity change, negative = inhibition for 2 compounds.

SMILES strings stand for the structures. This is a selection; strong and weak results do not stand in their true shares. Results filed as inconclusive are left out. Some structures show a salt or complex split into parts, the way the source records it. The source made the active and inactive calls. Calls follow the shape of the dose curve; as a rule, active = well fitted inhibition curve with a large enough effect; inconclusive = small, poorly fitted or top-dose-only effect; inactive = no such curve, though single readings can be large or run the other way.
% is scaled to controls: 0 for no effect and ±100 for the full control effect.

`C/C1=C2N=C(/C=C3N=C(/C(C)=C4\N=C(C(CC(N)=O)C4(C)CCC(=O)NCC(C)OP(=O)([O-])OC4C(CO)OC(n5cnc6cc(C)c(C)cc65)C4O)C4(C)N=C1C(CCC(N)=O)C4(C)CC(N)=O)C(CCC(N)=O)C\3(C)C)C(CCC(N)=O)C/2(C)CC(N)=O.[C-]#N.[Co]` (stereo not drawn): the activity change, negative = inhibition in test [1] is inactive: 1.94%; in test [2], inactive: 2.71% [at 33.1 µM].

As to `CCOP(=O)(CC)Oc1ccc([N+](=O)[O-])cc1` (stereo not drawn), in test [2], the activity change, negative = inhibition is inactive: 10.1%.
